Publication PMC12391994, “Synthesis of a fac-Tricarbonylrhenium(I) Complex with Pyrithione, Its Physicochemical Characterization, and Assessment of Biological Effects” (ACS Omega, 2025)

System: DNA polymerase used in qPCR
Assay: Direct impact of the complex on the DNA polymerase used in qPCR
Assay type: biochemical

N#Cc1ccccc1.[C-]#[O+].[C-]#[O+].[C-]#[O+].[O-]n1ccccc1=S.[Re+] [complex 4, fac-[Re(CO)3(pth)(benzonitrile)]]
dCt value (treated vs untreated): 0.34 | Ct value of treated sample (effect on DNA polymerase) (untreated: 16.67 ± 0.58): 17.01 ± 0.48
